Anti-infective test results gathered from many reports (values: NIAID ChemDB through PubChem).

Shared fields: tests in culture; organism: Mycobacterium tuberculosis

Percent inhibition refers to the dose given; in toxicity tests it is the harm to the cells.

compound	method	endpoint	strain	tested at	mutations	result
COc1c(OC/C=C(\C)CCC=C(C)C)ccc2ccc(=O)oc12	BACTEC	MIC	H37Rv			32 µg/mL
CCOC(=O)c1ccc(NC(=O)CC(C(C)=O)C(=O)Nc2cccc3ccccc23)cc1		inhibition	H37Rv	30 µg/mL		0%
CC[C@]1(C)C[C@@H](OC(=O)CSC(C)(C)CNC(=O)[C@H](N)CC(C)C)[C@]2(C)[C@H](C)CC[C@]3(CC/C(=N\OC)[C@H]32)[C@@H](C)[C@@H]1O	resazurin	MIC100	H37Rv			5.81 µg/mL
O=C(Cc1ccccc1Nc1c(Cl)cccc1Cl)N/N=C/c1ccccc1Cl		MIC	H37Rv			3.6 µM
Fc1ccc(CNCCc2c[nH]c3ccccc23)cc1F		MIC	H37Ra			32 µg/mL
CC(=O)C(CC(=O)Nc1cccc2ccccc12)C(=O)Nc1cccc2ccccc12		inhibition	H37Rv	30 µg/mL		0%
Cc1cc(-c2cc3c(cc2F)c(=O)c(C(=O)O)cn3C2CC2)cc(C)n1		MIC90				>4 µg/mL
CO[C@H]1/C=C/O[C@@]2(C)Oc3c(C)c(O)c4c(O)c(c5c(c4c3C2=O)NC2(CCN(CC(C)C)CC2)N=5)=NC(=O)/C(C)=C\C=C\[C@H](C)[C@H](O)[C@@H](C)[C@@H](O)[C@@H](C)[C@H](OC(C)=O)[C@@H]1C		MIC	H37Rv			0.035 µg/mL
CN1CC(=O)NC2C=CN(Cc3c(Cl)cccc3Cl)C=C2C1=O	BACTEC	MIC bound	H37Rv			>12.5 µg/mL
CCCCCCCCCCN1C(=O)C=CC1=O		MIC	Clinical isolate (isoniazid-resistant)			≤20 µg/mL
COC(=O)c1c(C(=O)OC)c2c(Br)cc3ccccc3n2c1C(=O)c1ccc(C#N)cc1	resazurin	MIC	H37Rv			8 µg/mL
Fc1ccc(CNCc2c[nH]c3ccccc23)cc1		MIC	H37Ra			32 µg/mL
CC1C(=O)Nc2ccc(C(=O)CN3CCN(c4noc5c(Cl)cccc45)CC3)cc21	visual reading / absorbance	MIC	H37Rv			50 µg/mL
CCCN1CCN(c2cc(=O)c3nc4c(oc3c2)c2c(=O)c3c(O)c(C)c5c(c34)=C(O)[C@@](C)(O/C=C/[C@H](OC)[C@@H](C)[C@@H](OC(C)=O)[C@H](C)[C@H](O)[C@H](C)[C@@H](O)[C@@H](C)/C=C/C=C(/C)C(=O)N2)O5)CC1		MIC	H37Rv			0.035 µg/mL
O=C(O)c1cn(C2CC2)c2cc(N3CCN(C(=O)Cc4ccccc4Nc4c(Cl)cccc4Cl)CC3)c(F)cc2c1=O		MIC	H37Rv			0.16 µM
CCCCc1cn(Cc2ccc(Oc3ccc(Cl)cc3Cl)c(O)c2)nn1	MTT	MIC	V2475		INH RIF resistant	>4.8 µg/mL
O=C(c1ccccc1)N1C(=S)N(c2ccccn2)C(=Nc2ccccc2)C1=Nc1ccccc1	BACTEC	inhibition	H37Rv	12.5 µg/mL		0%
CCCCCCCCN1C(=O)CC(C)(SCC(N)C(=O)O)C1=O		MIC	H37Ra			≤20 µg/mL
CCOC(=O)c1ccc(NC(=O)C(CC(=O)Nc2ccc(C)cc2)C(C)=O)cc1		inhibition	H37Rv	5 µg/mL		0%
Clc1ccccc1CNCCc1c[nH]c2ccccc12		MIC	H37Ra			32–64 µg/mL
Clc1ccc(C(c2ccccc2)c2ccc(OCCN3CCCC3)c3ccccc23)cc1	resazurin	MIC	H37Rv			>12.5 µg/mL
CO[C@H]1/C=C/O[C@@]2(C)Oc3c(C)c(O)c4c(O)c(c(/C=N/N5CCN(C)CC5)c(O)c4c3C2=O)NC(=O)/C(C)=C\C=C\[C@H](C)[C@H](O)[C@@H](C)[C@@H](O)[C@@H](C)[C@H](OC(C)=O)[C@@H]1C		MIC	1 isolates (rpoB Ser531Tyr)			>8 µg/mL
O=C(NNC(=S)Nc1cccc(Cl)c1)c1ccncc1	resazurin	inhibition	H37Rv	6.25 µg/mL		96%
Cc1c(OCC(F)(F)F)ccnc1CS(=O)(=O)c1nc2ccccc2[nH]1	broth dilution / resazurin	EC50	Erdman			>50 µM
C[C@@H]1CN(c2c(F)c(N)c3c(=O)c(C(=O)O)cn(C4CC4)c3c2F)C[C@H](C)N1		MIC90	18 strains			0.5 µg/mL
Clc1cccc(CNCc2c[nH]c3ccccc23)c1Cl		MIC	H37Ra			32 µg/mL
NC1=NC(c2cccc(Oc3ccccc3)c2)C=C(c2ccccc2)N1	resazurin	inhibition	H37Rv	6.25 µg/mL		82%
CCOc1ccc(Nc2nc(C)c(C(=O)CC(=O)C(=O)Nc3ccc(Cl)c(C(F)(F)F)c3)s2)cc1	BACTEC	MIC bound	H37Rv			>12.5 µg/mL
Cc1cnc(CSc2nc3ccccc3[nH]2)c(C)c1	broth dilution / resazurin	EC50	Erdman			>50 µM
C/C=C/C/C=C/CCC(=O)[C@H]1O[C@H]1C(N)=O		MIC	90-0201 (DRUG-SUS)			5 µg/mL
CCCCc1cc(-c2ccc(Oc3ccc(Cl)cc3Cl)c(O)c2)no1	MTT	MIC	H37Rv			>100 µg/mL
CCN1C(=O)Cc2cc(C(=O)CN3CCN(c4noc5cc(Cl)ccc45)CC3)ccc21	visual reading / absorbance	MIC	H37Rv			3.12 µg/mL
Cc1c(OCC(F)(F)F)cc[n+]([O-])c1CSc1nc2ccccc2[nH]1	broth dilution / resazurin	EC50	Erdman			25 µM
Clc1ccccc1CNCc1c[nH]c2ccccc12		MIC	H37Ra			32 µg/mL
CCCCCCCCCC(=O)N1c2ccccc2Sc2ccccc21	BACTEC	inhibition	H37Rv	12.5 µg/mL		-13%
CCNCC1CCN(c2c(F)cc3c(=O)c(C(=O)O)cn(CC)c3c2F)C1		MIC90				>4 µg/mL
CO[C@H]1/C=C/O[C@@]2(C)Oc3c(C)c(O)c4c(O)c(c5c(c4c3C2=O)NC2(CCN(CC(C)C)CC2)N=5)=NC(=O)/C(C)=C\C=C\[C@H](C)[C@H](O)[C@@H](C)[C@@H](O)[C@@H](C)[C@H](OC(C)=O)[C@@H]1C		MIC	Isolate 900145 drug-susceptible			0.063 µg/mL
Fc1ccc(C2=CC(c3cccc(Oc4ccccc4)c3)NC(=S)N2)cc1	resazurin	inhibition	H37Rv	6.25 µg/mL		81%
Cc1cc(=O)c2c(O)cc3c(c2o1)CC=C(COC1OC(COC2OC(CO)C(O)C(O)C2O)C(O)C(O)C1O)CO3	BACTEC	MIC	H37Rv			≥12.5 µg/mL
O=CN(Cc1ccccc1)Cc1c[nH]c2ccccc12		MIC	H37Ra			64 µg/mL
O=C1OC(C(O)CO)C(=N\Nc2ccc(Cl)cc2)/C1=N\Nc1ccccc1	BACTEC	MIC bound	H37Rv			>12.5 µg/mL
CO[C@H]1/C=C/O[C@@]2(C)Oc3c(C)c(O)c4c(O)c(c5c(c4c3C2=O)NC2(CCNCC2)N=5)=NC(=O)/C(C)=C\C=C\[C@H](C)[C@H](O)[C@@H](C)[C@@H](O)[C@@H](C)[C@H](OC(C)=O)[C@@H]1C	visual reading / absorbance	MIC	H37Rv			0.2 µg/mL
NNc1ccc2nccn2n1	BACTEC	MIC bound	H37Rv			>12.5 µg/mL
CCCCCCCCCCNC1CC(=O)N(CCCCCCCCCC)C1=O		MIC	H37Ra			≤20 µg/mL
CCSc1nc(Cl)c(C#N)c(-c2ccc(F)cc2F)n1		MIC	H37Rv			>25 µg/mL
NC1=NC(c2cccc(Oc3ccccc3)c2)C=C(c2ccc(Br)cc2)N1	resazurin	inhibition	H37Rv	6.25 µg/mL		79%
Cc1c(C(C[N+](=O)[O-])C[N+](=O)[O-])c2ccccc2n1C		MIC	H37Ra			>64 µg/mL
CCOC(=O)c1ccc(NC(=O)C(CC(=O)Nc2ccc(OC)cc2)C(C)=O)cc1		inhibition	H37Rv	5 µg/mL		0%
O=C(Cc1ccccc1Nc1c(Cl)cccc1Cl)N/N=C/c1ccc([N+](=O)[O-])cc1		MIC	H37Rv			1.76 µM
Cc1ncc([N+](=O)[O-])n1CCOc1c(Cl)cc(Cl)cc1CN(C)C1CCCCC1	resazurin	inhibition	H37Rv	6.25 µg/mL		0%
Cc1cc(C(=O)NCc2ccc(Oc3ccc(Cl)cc3Cl)c(O)c2)no1	MTT	MIC	V2475		INH RIF resistant	40 µg/mL
NNC(=O)CNc1ccccc1F	BACTEC	MIC bound	H37Rv			>12.5 µg/mL
CCOC(=O)c1ccc(NC(=O)C(CC(=O)Nc2cccc(C)c2)C(C)=O)cc1		inhibition	H37Rv	30 µg/mL		0%
Fc1ccc(F)c(CNCCc2c[nH]c3ccccc23)c1		MIC	H37Ra			64 µg/mL
C=C[C@]1(C)C[C@@H](OC(=O)CSC(C)(C)CNC[C@H](N)C(C)C)[C@]2(C)[C@H](C)CC[C@]3(CCC(O)[C@H]32)[C@@H](C)[C@@H]1O	broth dilution	MIC100	H37Rv			6.25 µg/mL
CCOC(=O)c1ccc(NC(=O)C(CC(=O)Nc2ccc(OCC)cc2)C(C)=O)cc1		inhibition	H37Rv	30 µg/mL		0%
Oc1cc(Cn2cc(-c3ccccc3)nn2)ccc1Oc1ccc(Cl)cc1Cl	MTT	MIC	H37Rv			>100 µg/mL
COc1cc(/C=N/NC(=O)Cc2ccccc2Nc2c(Cl)cccc2Cl)ccc1O		MIC	H37Rv			7.02 µM
C=C1C(=O)O[C@@H]2C[C@@]3(C)C=CC(=O)C(=C)[C@@H]3C[C@H]12		MIC	INH-r			12.5 µg/mL
CN(CCc1ccccc1)Cc1c(CC2CCCCC2)[nH]c2ccnc(Cl)c12	resazurin	EC50	H37Rv			>50 µg/mL
NNC(=O)C(=O)N/N=C1\CCCC1C(=O)CCC(=O)Nc1ccc(Cl)cc1	BACTEC	MIC bound	H37Rv			>12.5 µg/mL
Oc1cc(Cl)ccc1Oc1ccc(Cn2ccnn2)cc1Cl	MTT	MIC	H37Rv			100 µg/mL
CCOC(=O)C1=C(C(=O)OCC)C(O)(C(=O)OCC)C(C(=O)OCC)O1	BACTEC	inhibition	H37Rv	12.5 µg/mL		10%
Clc1cc(Cl)cc(CNCCc2c[nH]c3ccccc23)c1		MIC	H37Ra			32 µg/mL
CCCCCc1c(C)[nH]n(C(N)=NCCSCc2nc[nH]c2C)c1=O	BACTEC	inhibition	H37Rv	12.5 µg/mL		44%
CCOC(=O)c1ccc(NC(=O)C(CC(=O)Nc2cccc3ccccc23)C(C)=O)cc1		inhibition	H37Rv	5 µg/mL		0%
CC/C(C)=C(/NC(=O)[C@H](C)NC(=O)[C@@H]1CCC=NN1C(=O)[C@@H](NC(=O)[C@H](C)NC(=O)C(N)(CO)CO)[C@H](C)N)C(=O)N[C@@H](CO)C(=O)O		MIC	Rifampicin-resistant			3.1 µg/mL
CCC(C)N1CCN(c2cc(=O)c3nc4c(oc3c2)c2c(=O)c3c(O)c(C)c5c(c34)=C(O)[C@@](C)(O/C=C/[C@H](OC)[C@@H](C)[C@@H](OC(C)=O)[C@H](C)[C@H](O)[C@H](C)[C@@H](O)[C@@H](C)/C=C/C=C(/C)C(=O)N2)O5)CC1		MIC	H37Rv			0.017 µg/mL
CC[C@]1(C)C[C@@H](OC(=O)CSC(C)(C)CNC(=O)[C@H](N)C(C)C)[C@]2(C)[C@H](C)CC[C@]3(CCC(O)[C@H]32)[C@@H](C)[C@@H]1O	resazurin	MIC100	H37Rv			12.5 µg/mL
NC(=S)NNC(=S)S		MIC	KM-R			>12.5 µg/mL
CCOC(=O)c1ccc(NC(=O)CC(C(C)=O)C(=O)Nc2ccc(C(=O)OCC)cc2)cc1		inhibition	H37Rv	5 µg/mL		0%
C=C1C(=O)C23OC2C1CCC(=O)C1(C)CCC(OC(C)=O)C(C)(C)C1CC3=O	BACTEC	MIC	H37Rv			>12.5 µg/mL
CN1CCN(c2c(F)cc3c(=O)c(C(=O)O)cn(CCF)c3c2F)CC1		MIC90				>4 µg/mL
Oc1cc(Cl)ccc1Oc1ccc(-c2cc(-c3ccccc3)on2)cc1Cl	MTT	MIC	H37Rv			>100 µg/mL
NC(=O)c1cc2c(oc1=O)-c1ccccc1OC2	BACTEC	inhibition	H37Rv	12.5 µg/mL		-6%
O=C1NC(c2ccc(Cl)cc2Cl)=CC(c2cccc(Oc3ccccc3)c2)N1	resazurin	inhibition	H37Rv	6.25 µg/mL		74%
CC1=CC(=O)N(c2ccc(N3CCCCC3)cc2)C1=O		MIC	H37Ra			≤20 µg/mL
O=c1[nH]c(=O)c2nccnc2[nH]1	BACTEC	MIC bound	H37Rv			>12.8 µg/mL
CCN1C(=O)Cc2cc(C(=O)CN3CCN(c4noc5c(Cl)cccc45)CC3)ccc21	visual reading / absorbance	MIC	H37Rv			3.12 µg/mL
C/C(O)=C(\C=NC(=S)c1ccncc1)C(=O)Nc1ccccc1C	resazurin	inhibition	H37Rv	6.25 µg/mL		-4%
C/C=C1/C(=O)O[C@]23C=C[C@@H]4C(C(=O)OC)=CO[C@H](O[C@@H]12)[C@@H]43	MTT	MBC	MDR4 clinical isolate			3.7 µg/mL

Blank or dashed fields: not listed here. MIC bound comes from a single tested concentration. A number after MIC or MFC names an inhibition level or a share of isolates. Lines come from different laboratories, so protocols vary. a–b is a range or a potency band. ECn: concentration that inhibits the pathogen or its effect by n%.